Anti-infective test results gathered from many reports (values: NIAID ChemDB through PubChem).

All rows: tests in culture; organism: Hepatitis B virus; read-out: EC50

Two numbers with a dash give a range or band.

smiles | mutations | cell line | read by | result
CNC(=O)c1cnc(-n2c(=O)c3c(n4ncc(Cc5ccccc5)c24)CN(C(=O)c2ccc(Br)c(C(F)(F)F)c2)[C@H](C)C3)nc1 | - | HepG2.117 | luminescence | ≤0.05 µM
C#C[C@@](C)(CO)NC(=O)C(=O)c1c(C)c(C(=O)Nc2ccc(F)c(C(F)(F)F)c2)n(C)c1C | - | HepG2.2.15 | PCR | 0.001–0.0099 µM
C[C@@H](NC(=O)C(=O)N1C[C@H]2COc3c(cn(C)c3C(=O)Nc3ccc(F)c(F)c3)S(=O)(=O)N[C@H]2C1)C(F)(F)F | - | HepAD38 | PCR | <0.5 µM
CCNC(=O)c1ccc2ncnc(Nc3ccc(N4CCOCC4)cc3)c2c1 | - | HUH 9B | replicon | 1–5 µM
Cc1ccn(-c2ccc(-n3c(=O)c4c(n5ncc(CC(C)C)c35)CN(C(=O)c3ccc(Br)c(C(F)(F)F)c3)[C@@H](C)C4)cc2)n1 | - | HepG2.117 | luminescence | 0.5–5 µM
COCCCOc1cc2c(cc1Cl)-c1c(cc(C(=O)O)c(=O)n1C1CCCC1)CS2 | - | Primary human hepatocytes | antigen / visual reading / absorbance | >0.5 µM
O=C(NCc1ccccc1-c1cnccn1)c1c2n(c(=O)n1-c1ccc(OC3CC3)cc1)CCN(C(=O)c1ccc(Br)c(Cl)c1)C2 | - | HepG2.117 | PCR | <0.1 µM
Cc1cc(NC(=O)c2c(C)c(C(=O)C(=O)NC(C)(C)c3ccc4nc[nH]c4c3)c(C)n2C)ccc1F | - | HepG2.2.15 | PCR | 0.001–0.0099 µM
COc1ccc([C@H](C)NC(=O)c2c3n(c(=O)n2-c2ccc(OC4CC4)cc2)CCN(C(=O)c2ccc(Br)c(Cl)c2)C3)cc1 | - | HepG2.117 | PCR | 0.1–0.5 µM
COc1cc(Nc2ncnc3ccc(I)cc23)ccc1N1CCOCC1 | - | HUH 9B | replicon | 1–5 µM
CNC(=O)c1cnc(-n2c(=O)c3c(n4ncc(CC(C)C)c24)CN(C(=O)c2ccc(Br)c(C(F)(F)F)c2)[C@H](C)C3)cn1 | - | HepG2.117 | luminescence | ≤0.05 µM
CCOC(=O)Nc1cc2c(cc1OCCCOC)S(=O)(=O)Cc1cc(C(=O)O)c(=O)n(C3CC3)c1-2 | - | Primary human hepatocytes | antigen / visual reading / absorbance | >0.5 µM
CSc1ccc(-n2c(C(=O)NCc3ccccc3)c3n(c2=O)CCN(C(=O)c2ccc(Br)c(Cl)c2)C3)cc1 | - | HepG2.117 | PCR | 0.1–0.5 µM
OCc1ccc(-c2ccc3ncnc(Nc4ccc(N5CCOCC5)cc4)c3c2)o1 | - | HUH 9B | replicon | <1 µM
Cc1cc(NC(=O)c2c3c(cn2C)S(=O)(=O)N[C@H]2CN(C(=O)C(=O)NC4(C(F)(F)F)CC4)C[C@H]2CO3)ccc1F | - | HepAD38 | PCR | <0.5 µM
COc1ccc(-n2c(C(=O)NCc3cccc(C(N)=O)c3)c3n(c2=O)CCN(C(=O)c2ccc(Cl)c(Cl)c2)C3)cc1 | - | HepG2.117 | PCR | >5 µM
N#Cc1ccc(-c2nc(Nc3ccc(N4CCOCC4)cc3)c3ccccc3n2)cc1 | - | HUH 9B | replicon | 1–5 µM
COc1cc2c(cc1Cl)-c1c(cc(C(=O)O)c(=O)n1C1CC1)C(C)S2 | - | Primary human hepatocytes | antigen / visual reading / absorbance | >0.5 µM
C#CCNC(=O)C(=O)c1c(F)c(C(=O)Nc2ccc(F)c(C#N)c2)n(C)c1C | - | HepG2.2.15 | PCR | 0.001–0.0099 µM
Cc1cc(NC(=O)c2c3c(cn2C)S(=O)(=O)N[C@H]2CN(C(=O)C(=O)NCC(F)(F)F)C[C@H]2CS3)ccc1F | - | HepAD38 | PCR | <0.5 µM
CNc1nnc2cc(-n3c(=O)c4c(n5ncc(Cc6ccccc6)c35)CN(C(=O)c3ccc(Br)c(Cl)c3)CC4)ccn12 | - | HepG2.117 | luminescence | ≤0.05 µM
Cc1cc(NC(=O)c2c3c(cn2C)S(=O)(=O)N[C@H]2CN(C(=O)C(=O)N[C@H](C)C(F)(F)F)C[C@H]2CO3)ccc1F | I105T | HepG2 | PCR | 0.00322 µM
C#C[C@@H](NC(=O)C(=O)c1c(C)c(C(=O)Nc2ccc(F)c(C(F)(F)F)c2)n(C)c1C)C1CC1 | - | HepG2.2.15 | PCR | <0.001 µM
CNC(=O)c1ccc(-n2c(=O)c3c(n4ncc(Cc5ccccc5)c24)CN(C(=O)c2ccc(Br)c(C(F)(F)F)c2)[C@@H](C)C3)cc1 | - | HepG2.117 | luminescence | ≤0.05 µM
CNCc1ccc(-c2ccc3ncnc(Nc4ccc(N5CCOCC5)cc4)c3c2)o1 | - | HUH 9B | replicon | 5–25 µM
COc1ccc(CNC(=O)c2c3n(c(=O)n2-c2ccccc2)CCN(C(=O)c2ccc(Br)c(Cl)c2)C3)c(F)c1 | - | HepG2.117 | PCR | 0.1–0.5 µM
COCCCOc1cc2c(cc1-c1ccc(C)s1)-c1c(cc(C(=O)O)c(=O)n1C1CC1)C(C)S2(=O)=O | - | Primary human hepatocytes | antigen / visual reading / absorbance | >0.5 µM
O=Cc1ccc(C2(Nc3ccc(N4CCOCC4)cc3)N=CNc3ccccc32)o1 | - | HUH 9B | replicon | <1 µM
Cn1cnnc1-c1ccc(-n2c(=O)c3c(n4ncc(Cc5ccccc5)c24)CN(C(=O)c2ccc(Br)c(C(F)(F)F)c2)CC3)cc1 | - | HepG2.117 | luminescence | ≤0.05 µM
COc1cccc(CNC(=O)c2ccc3ncnc(Nc4ccc(N5CCOCC5)cc4)c3c2)c1 | - | HUH 9B | replicon | 1–5 µM
CC(Oc1cc2c(cc1Cl)-c1c(cc(C(=O)O)c(=O)n1C1CC1)C(C)S2(=O)=O)C1CC1 | - | Primary human hepatocytes | antigen / visual reading / absorbance | 0.1–0.5 µM
N=c1nc(N)c2ncn([C@@H]3O[C@H](CO)[C@@H](O)[C@H]3O)c2c(N)n1 | - | 2.2.15 | - | >10 µM
CCCOc1cc2c(cc1Cl)-c1c(cc(C(=O)O)c(=O)n1C1CC1)C(C)S2(=O)=O | - | Primary human hepatocytes | antigen / visual reading / absorbance | 0.1–0.5 µM
COc1ccc(-n2c(C(=O)NCc3ccc(C#N)cc3)c3n(c2=O)CCN(C(=O)c2ccc(Br)c(Cl)c2)C3)cc1 | - | HepG2.117 | PCR | 0.5–5 µM
CC1c2cc(C(=O)O)c(=O)n(C3CC3)c2-c2cc(Cl)c(OC[C@@H]3CCCO3)cc2S1(=O)=O | - | Primary human hepatocytes | antigen / visual reading / absorbance | 0.1–0.5 µM
CNc1nsc2cc(-n3c(=O)c4c(n5ncc(Cc6ccccc6)c35)CN(C(=O)c3ccc(Br)c(Cl)c3)CC4)ccc12 | - | HepG2.117 | luminescence | ≤0.05 µM
O=C(O)c1cc2c(n(C3CC3)c1=O)-c1cc(Cl)c(OCC(F)F)cc1S(=O)(=O)C2 | - | Primary human hepatocytes | antigen / visual reading / absorbance | 0.1–0.5 µM
CC[C@@H]1Cc2c(n3ncc(Cc4ccccc4)c3n(-c3ccc4c(NC)n[nH]c4c3)c2=O)CN1C(=O)c1ccc(Br)c(C(F)(F)F)c1 | - | HepG2.117 | luminescence | ≤0.05 µM

ECn: concentration that inhibits the pathogen or its effect by n%. Neighbouring rows are from separate reports. Blank or dashed fields: not listed here.